Source: PubChem BioAssay AID1259414 (Drosophila RNAi Screening Center, 2018)
Test: 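Host factors increasing or decreasing Wolbachia levels in cultured fly cells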 (primary screen). System: Drosophila JW18 cells infected with Wolbachia. Knock-down reagent: long dsRNA against Drosophila genes, 0.25 µg dsRNA per well of a 384-well plate. Timing: 5 days. Conditions: cells persistently infected with Wolbachia before knock-down; no added drug. Read-out: 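Imaged fluorescence in situ signal for Wolbachia 23S rRNA per DAPI-counted host cell, given as a robust z-score within each plate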. Direction: Wolbachia per cell robust z: higher = more Wolbachia per host cell than the plate typical. Rule for the call: 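Active if absolute robust z reaches 1.5 in two or more of three replicates, leaving out multi- or no-target dsRNAs, genes unexpressed in JW18 and A1 wells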.
The screen tested about 24,000 reagents; below is an unselected part of those that have a named target and a result. In the full data, about 1,210 (5%) were called active. 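Inactive calls also include excluded dsRNAs with several or no targets, genes unexpressed in JW18, and well A1, regardless of score.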 Unmarked entries are inactive. A plus sign joins genes that one reagent is predicted to hit. Reagent sequences are not shown.

| gene | PubChem SID | Wolbachia per cell robust z, rep 1 | Wolbachia per cell robust z, rep 2 | Wolbachia per cell robust z, rep 3 |
| --- | --- | --- | --- | --- |
| MsR1 (Myosuppressin receptor 1) | SID104188407 | -0.141 | -1.17 | -1.2 |
| MsR1 (Myosuppressin receptor 1) | SID104205011 | -0.0533 | -0.0155 | -0.935 |
| z (zeste) | SID104202491 | -0.416 | -0.227 | 0.553 |
| z (zeste) | SID104218393 | -1.22 | -2.06 | -1.22 |
| CG42380 + CG42381 + CG42379 + 1 more | SID104183676 | -0.0115 | 0.13 | 0.0484 |
| mRpL28 (mitochondrial ribosomal protein L28) | SID104182516 | -0.303 | -0.666 | -2.69 |
| CG30486 | SID104186472 | 0.894 | -0.696 | 0.763 |
| snoRNA:Psi18S-1275 + RpS29 | SID104196225 | 1.06 | 1.85 | 2.97 |
| Hr78 (Hormone-receptor-like in 78) | SID104191658 | 0.672 | 1.58 | -0.589 |
| Hr78 (Hormone-receptor-like in 78) | SID104206437 | 0.692 | -0.755 | 0.576 |
| Sema2b (Semaphorin 2b) | SID104185401 | 0.169 | 0.339 | 0.369 |
| Sema2b (Semaphorin 2b) | SID104186659 | 0.0655 | -0.26 | 0.814 |
| Sema2b (Semaphorin 2b) | SID104203333 | 0.407 | -0.329 | -0.744 |
| syd (sunday driver) | SID104190755 | 0.524 | 0.0851 | 1.39 |
| syd (sunday driver) | SID104203181 | 0.589 | -0.881 | -0.31 |
| Alp5 (Alkaline phosphatase 5) | SID104194061 | -12.3 | -8.61 | -3.09 |
| Alp5 (Alkaline phosphatase 5) | SID104208083 | 0.059 | -2.61 | 0.132 |
| Alp5 (Alkaline phosphatase 5) | SID104219136 | 0.163 | 0.316 | 0.386 |
| Wee1 (Wee1 kinase) | SID104183427 | 0.511 | -0.768 | 0.92 |
| Wee1 (Wee1 kinase) | SID104202675 | 0.598 | -0.349 | -0.16 |
| Calx (Na/Ca-exchange protein) | SID104193249 | -0.696 | -0.62 | -2.98 |
| Calx (Na/Ca-exchange protein) | SID104193251 | -1.42 | -0.455 | -9.97 |
| Calx (Na/Ca-exchange protein) | SID104196391 | -1.93 | -5.39 | -0.798 |
| Calx (Na/Ca-exchange protein) | SID104201495 | -2.43 | -1.5 | -1.21 |
| Calx (Na/Ca-exchange protein) | SID104203164 | 0.359 | 1.79 | 1.84 |
| CG1288 | SID104192330 | -0.196 | 0.38 | -0.0567 |
| CG1288 | SID104203942 | 1.2 | 0.182 | 1.14 |
| Ir64a (Ionotropic receptor 64a) | SID104189551 | 0.214 | -0.642 | -0.613 |
| Ir64a (Ionotropic receptor 64a) | SID104189552 | -0.723 | -0.0237 | -4.8 |
| sdk (sidekick) | SID104198623 | -0.637 | -0.79 | -0.576 |
| CG10472 | SID104189522 | -0.704 | -0.695 | 0.716 |
| CG10472 | SID104203856 | -0.911 | -1.72 | -0.983 |
| BBIP1 + CG8135 | SID104192531 | 0.534 | 1.11 | 0.304 |
| Cdc5 + Roc1b | SID104188479 | 1.04 | 0.397 | 0.488 |
| CG8708 | SID104187032 | 0.865 | -0.639 | 0.399 |
| CG8708 | SID104206418 | -0.84 | 0.513 | -0.0795 |
| Mid1 | SID104184023 | 0.371 | -1.16 | -0.206 |
| Mid1 | SID104184100 | 0.0839 | -1.47 | -0.54 |
| Mid1 | SID104202134 | 0.755 | -0.79 | -0.613 |
| Mid1 | SID104202162 | -0.361 | -0.056 | -0.253 |
| Mid1 | SID104204054 | -0.84 | 0.661 | -0.334 |
| Mid1 | SID104207178 | 1.25 | 1.4 | 0.0859 |
| CG7218 | SID104196008 | 0.258 | -0.946 | 0.245 |
| CG7218 | SID104206094 | -0.0392 | -1.13 | 0.28 |
| js (jiangshi) | SID104194796 | -0.0332 | 0.179 | -0.301 |
| CG31007 | SID104193821 | -1.07 | -0.86 | 0.491 |
| CG31007 | SID104206765 | -0.183 | -1.46 | -0.0231 |
| CG15554 | SID104194884 | -3.18 | -0.0837 | 0.697 |
| CngA (Cyclic nucleotide-gated ion channel subunit A) | SID104186372 | -0.44 | -0.263 | 0.337 |
| CngA (Cyclic nucleotide-gated ion channel subunit A) | SID104187154 | 0.133 | -2.18 | -0.541 |
| CngA (Cyclic nucleotide-gated ion channel subunit A) | SID104202781 | -2.28 | 1.25 | -7.86 |
| Jon74E (Jonah 74E) | SID104190409 | 0.261 | -0.929 | 0.404 |
| Jon74E (Jonah 74E) | SID104202955 | -1.63 | 1.16 | -0.722 |
| bel (belle) | SID104196347 | 0.511 | 0.0331 | 1.77 |
| bel (belle) | SID104203612 | 1.79 (active) | 1.43 | 3.06 |
| CG4733 | SID104195426 | -0.468 | 0.854 | -0.952 |
| CG34215 | SID104216272 | 0.282 | -2.15 | -0.0611 |
| ord (orientation disruptor) | SID104184498 | -0.702 | -0.317 | -0.194 |
| Sap30 (SIN3-associated polypeptide 30) | SID104199708 | -1.13 | -0.533 | -0.0234 |
| jtb (jetboil) | SID104186660 | -0.251 | -0.476 | -0.145 |
| GAA1 (Glycosylphosphatidylinositol anchor attachment 1) | SID104198059 | 1.58 | -1.13 | 0.698 |
| CG31928 | SID104180085 | 0.46 | -0.0691 | -0.354 |
| CheA7a (Chemosensory protein A 7a) | SID104197757 | -2.61 | -1.92 | -4.12 |
| CG10343 | SID104181833 | 1.09 | 0.0326 | 1.06 |
| CG10343 | SID104206284 | 0.253 | 1.09 | 0.381 |
| CG4294 | SID104184252 | 0.89 | 0.592 | 0.531 |
| eIF1A (eukaryotic translation initiation factor 1A) | SID104196729 | 1.34 | 1.14 | 1.52 |
| lncRNA:mimi (mimi) | SID104201176 | 0.236 | 0.671 | 0.47 |

Entries listed so far whose target name starts with A or a:
| gene | PubChem SID | Wolbachia per cell robust z, rep 1 | Wolbachia per cell robust z, rep 2 | Wolbachia per cell robust z, rep 3 |
| --- | --- | --- | --- | --- |
| Alp5 (Alkaline phosphatase 5) | SID104194061 | -12.3 | -8.61 | -3.09 |
| Alp5 (Alkaline phosphatase 5) | SID104208083 | 0.059 | -2.61 | 0.132 |
| Alp5 (Alkaline phosphatase 5) | SID104219136 | 0.163 | 0.316 | 0.386 |
